Anti-infective test results gathered from many reports (values: NIAID ChemDB through PubChem).

Common to all: tests in culture; organism: HIV-1; cell line: MT-2; read-out: EC50

ECn: concentration that inhibits the pathogen or its effect by n%. An empty or dashed field is not shown. Lines come from different laboratories, so protocols vary.

smiles	strain	mutations	read by	conditions	result
Cn1nc(NS(C)(=O)=O)c2c(Cl)ccc(-n3c([C@H](Cc4cc(F)cc(F)c4)NC(=O)Cn4nc(C(F)F)c5c4C(F)(F)[C@@H]4C[C@H]54)nc4nc(-c5cnc(C(C)(C)O)s5)ccc4c3=O)c21	NL4-3		luciferase		0.000056 µM
Cc1cc2nc(-c3cccc([N+](=O)[O-])c3)ccc2c(C)c1C	NL4-3-Luc		luciferase		>189 µM
Nc1ncnc2c1ncn2[C@@H]1C=C(I)[C@H](CO)[C@H]1CO	IIIB		MTT		>1 µM
COc1ccc2c(c1)[C@@H](N1CCCC1=O)C[C@@H](c1cccc([N+](=O)[O-])c1)N2	NL4-3-Luc		luciferase		>136 µM
Nc1ncnc2c1ncn2[C@@H]1C=C(Br)[C@H](CO)[C@H]1CO	IIIB		MTT		>1 µM
COc1ccnc2[nH]cc(C(=O)C(=O)N3CCN(C(=O)c4ccccc4)C[C@H]3C)c12	LAI(GP41-I595F) Recombinant	GP41-I595F	RT activity		0.032 µM
COc1ccc2c(c1)[C@@H](N1CCCC1=O)C[C@@H](c1cccc(N)c1)N2	NL4-3	Delta-VSV-Luc	luciferase	pseudotyped	25.97 µM
NC(N)=NCCC[C@H](N)C(=O)NC[C@@H]1OC(O[C@H]2[C@@H](O)[C@H](O[C@@H]3[C@@H](O)[C@H](NC(=O)[C@@H](N)CCCN=C(N)N)C[C@H](NC(=O)[C@@H](N)CCCN=C(N)N)[C@H]3O[C@H]3O[C@H](CNC(=O)[C@@H](N)CCCN=C(N)N)[C@@H](O)[C@H](O)[C@H]3NC(=O)[C@@H](N)CCCN=C(N)N)O[C@@H]2CO)[C@H](NC(=O)[C@@H](N)CCCN=C(N)N)[C@@H](O)[C@@H]1O	IIIB	UC781-resistant	p24 / RT activity		1.7 µM
O=C1CCCN1[C@H]1C[C@@H](c2cccc([N+](=O)[O-])c2)Nc2ccccc21	NL4-3-Luc		luciferase		>148 µM
CC(C)C1=C2[C@H]3CC[C@@H]4[C@@]5(C)CC[C@H](OC(=O)[C@H]6C[C@@H](C(=O)O)C6(C)C)C(C)(C)[C@@H]5CC[C@@]4(C)[C@]3(C)CC[C@@]2(CCNC(=O)[C@H]2CCCCN2)CC1=O	92HT599		p24 / ELISA		<1 µM
Cn1nc(NS(C)(=O)=O)c2c(Cl)ccc(-n3c([C@H](Cc4cc(F)cc(F)c4)NC(=O)Cn4nc(C(F)F)c5c4C(F)(F)[C@@H]4C[C@H]54)nc4nc(-c5cc(C(F)(F)F)ncn5)ccc4c3=O)c21	NL4-3		luciferase		0.00028 µM
CNC(=O)[C@@]1(C)Cn2c(=O)c(C(=O)NCCOC)c(O)c3ncc(Cc4ccc(F)cc4)c(c32)O1	IIIB		ATP / luminescence		0.0035 µM
Cc1cn([C@H]2C=C[C@@H](CO)O2)c(=O)[nH]c1=O			cytopathic effect		1.3 µM
O=C(O)c1cc(-n2cccc2)ccc1Cl	RF X4 CLADE B		p24		3.58 µM
C[Si](O)(CCCn1cnc2c(N)ncnc21)c1ccccc1	IIIB		MTT		1 µM
CNC(=O)c1c(O)c2ncc(Cc3ccc(F)cc3)c3c2n(c1=O)C[C@H](CNC(C)(C)CO)O3	IIIB		ATP / luminescence		0.012 µM
CC(C)C1=C2[C@H]3CC[C@@H]4[C@@]5(C)CC[C@H](OC(=O)[C@H]6C[C@@H](C(=O)O)C6(C)C)C(C)(C)[C@@H]5CC[C@@]4(C)[C@]3(C)CC[C@@]2(CC(=O)NCc2ccc(CN3CCN(C)CC3)cc2)CC1=O	92HT599		p24 / ELISA		<1 µM
Nc1cccc([C@@H]2C[C@H](N3CCCC3=O)c3cc(I)ccc3N2)c1	NL4-3-Luc		luciferase		54.42 µM
COCCNC(=O)c1c(O)c2ncc(Cc3ccc(F)cc3)c3c2n(c1=O)C[C@@H](C(=O)NC(C)(C)CO)O3	IIIB		ATP / luminescence		0.012 µM
C[Si](C)(CCCn1ccc2ccccc21)O[Si](C)(C)CCCn1ccc2ccccc21	IIIB		MTT		1 µM
Cn1nc(NS(C)(=O)=O)c2c(Cl)ccc(-n3c([C@H](Cc4cc(F)cc(F)c4)NC(=O)Cn4nc(C(F)F)c5c4C(F)(F)[C@@H]4C[C@H]54)nc4nc(-c5csc(S(C)(=O)=O)n5)ccc4c3=O)c21	NL4-3		luciferase		0.000065 µM
CC(C)C1=C2[C@H]3CC[C@@H]4[C@@]5(C)CC[C@H](OC(=O)[C@H]6C[C@@H](C(=O)O)C6(C)C)C(C)(C)[C@@H]5CC[C@@]4(C)[C@]3(C)CC[C@@]2(CCNCC(C)(C)NC(=O)c2ccc(OCCN3CCOCC3)cc2)CC1=O	92HT599		p24 / ELISA		<1 µM
COc1ccnc2[nH]cc(C(=O)C(=O)N3CCN(C(=O)c4ccccc4)C[C@H]3C)c12	LAI				0.00268 µM
CC(C)C1=C2[C@H]3CC[C@@H]4[C@@]5(C)CC[C@H](OC(=O)[C@H]6C[C@@H](C(=O)O)C6(C)C)C(C)(C)[C@@H]5CC[C@@]4(C)[C@]3(C)CC[C@@]2(CC(=O)NCC(C)(C)NC(=O)c2ncc[nH]2)CC1=O	92HT599		p24 / ELISA		<1 µM
C[Si](C)(CCCSc1ncccn1)O[Si](C)(C)CCCSc1ncccn1	IIIB		MTT		3 µM
CC(C)C1=C2[C@H]3CC[C@@H]4[C@@]5(C)CC[C@H](OC(=O)[C@H]6C[C@@H](C(=O)O)C6(C)C)C(C)(C)[C@@H]5CC[C@@]4(C)[C@]3(C)CC[C@@]2(CCNC(=O)c2nccn2C)CC1=O	92HT599		p24 / ELISA		<1 µM
CNC(=O)[C@@]1(C)Cn2c(=O)c(C(=O)NC3CC3)c(O)c3ncc(Cc4ccc(F)cc4)c(c32)O1	IIIB		ATP / luminescence		0.016 µM
O=[N+]([O-])c1cccc(-c2ccc3ccccc3n2)c1	NL4-3	Delta-VSV-Luc	luciferase	pseudotyped	24.63 µM
CNC(=O)c1c(O)c2ncc(Cc3ccc(F)cc3)c3c2n(c1=O)C[C@@H](Cn1cnc(C)c1)O3	IIIB		ATP / luminescence		0.0083 µM
CC(C)C1=C2[C@H]3CC[C@@H]4[C@@]5(C)CC[C@H](OC(=O)[C@H]6C[C@@H](C(=O)O)C6(C)C)C(C)(C)[C@@H]5CC[C@@]4(C)[C@]3(C)CC[C@@]2([C@@H](O)CNCC2CC2)CC1=O	92HT599		p24 / ELISA		<1 µM
CCCOc1nc(N)nc2c1ncn2[C@@H]1C=C[C@H](CO)C1					2.5 µM
Nc1cccc([C@@H]2C[C@H](N3CCCC3=O)c3ccccc3N2)c1	NL4-3-Luc		luciferase		>163 µM
CC(C)C1=C2[C@H]3CC[C@@H]4[C@@]5(C)CC[C@H](OC(=O)[C@H]6C[C@@H](C(=O)O)C6(C)C)C(C)(C)[C@@H]5CC[C@@]4(C)[C@]3(C)CC[C@@]2(CC(=O)NCCN2CCCCC2)CC1=O	92HT599		p24 / ELISA		<1 µM
C[Si](O)(O[Si](C)(CCCn1cnc2c(N)ncnc21)c1ccccc1)c1ccccc1	IIIB		MTT		12 µM

Repeating the final 2 entries:

smiles	strain	mutations	read by	conditions	result
CC(C)C1=C2[C@H]3CC[C@@H]4[C@@]5(C)CC[C@H](OC(=O)[C@H]6C[C@@H](C(=O)O)C6(C)C)C(C)(C)[C@@H]5CC[C@@]4(C)[C@]3(C)CC[C@@]2(CC(=O)NCCN2CCCCC2)CC1=O	92HT599		p24 / ELISA		<1 µM
C[Si](O)(O[Si](C)(CCCn1cnc2c(N)ncnc21)c1ccccc1)c1ccccc1	IIIB		MTT		12 µM